Measured values from several laboratories, pooled; numbers as filed in NIAID ChemDB.

All rows: whole-cell or culture tests; organism: Cryptococcus neoformans; read-out: MIC

An empty or dashed field is not shown.

structure | strain or isolate | result
C=C(CCCCCNC1NCCC2c3ccc(OC)cc3CCN12)C(C)C | NFI3102 | 16 µg/mL
COc1c(C(=O)/C=C(\O)c2ccccc2)ccc2sccc12 |  | >50 µg/mL
CO[C@@H]1[C@@H](C)O[C@@H](OCC23CC4C(C)CCC4C4(C=O)CC2C=C(C(C)C)C43C(=O)O)[C@@H](O)C12OC(=O)[C@H](CCCCCCCC(=O)O)O2 | MY2062 | >100 µg/mL
COc1ccccc1CN(Cc1ccc(-c2ccccc2)cc1)n1ccnc1 |  | 5.5 µM
OC(c1cc(-c2ccc(Cl)cc2)nc2c1ccc1ccccc12)C1CCCCN1 | ATCC 90013 | 0.8 µg/mL
CC(C)=CCC1=CC(=O)C=C(C)C1=O | ATCC90112 | 70 µg/mL
O=c1c(O)c(-c2ccccc2)oc2c1ccc1sccc12 |  | 25 µg/mL
Fc1ccccc1CN(Cc1ccc(-c2ccccc2)cc1)n1ccnc1 |  | 33 µM
CCCCN1C(c2sc(C)nc2C)=NNC1SC | PLM 589 | 6.25 µg/mL
CC(C)CCCCCCNC1NCCC2c3ccccc3CCN12 | NFI3102 | 2 µg/mL
COc1cc(O)c2c(c1)C(=O)c1c(cc3c(c1O)-c1c(cc(C)c(C(=O)NC(CO)C(=O)O)c1O)[C@H](OC1OC(C)C(O)C(OC4OCC(O)C(O)C4O)C1O)C3O)C2=O | 15 strains | 2 µg/mL
CC(=O)ONC1=Nc2ccc(Cl)cc2SCC1 | IMAT4711 | 25 µg/mL
CC(=O)c1ccc2sccc2c1O |  | 50 µg/mL
O=C(ONC1=Nc2ccc(Cl)cc2SCC1)c1ccccc1 | IMAT4711 | 50 µg/mL
Cc1nnsc1-c1n[nH]c(=S)n1-c1ccc2ccccc2c1 | PLM 589 | 6.25 µg/mL
CCOC(=O)/C(=C1/SCCC(C)S1)n1ccnc1 |  | >100 µg/mL
CSC1NN=C(c2snnc2C)N1C1C2CC3CC(C2)CC1C3 | PLM 589 | 12.5 µg/mL
CC(=O)ONC1=Nc2ccccc2SC1c1ccccc1 | IMAT4711 | 10 µg/mL
CC(=O)C1CCc2c(ccn2C)C1=O |  | 50 µg/mL
Cc1cc(NC(=O)c2ccc(NC(=O)COc3cccc(Cl)c3Cl)cc2)no1 | ATCC90112 | >100 µg/mL
ONC1=Nc2ccc3ccccc3c2SCC1 | IMAT4711 | 50 µg/mL
CSC1NN=C(c2sc(C)nc2C)N1C1C2CC3CC(C2)CC1C3 | PLM 589 | 0.53 µg/mL
N#CC(=C1SCCCS1)n1ccnc1 |  | >100 µg/mL
C[C@H]([C@](O)(Cn1cncn1)c1ccc(F)cc1F)S(C)(=O)=O | R718 (AZOLE-R) | 20 µM
NCCNC(=O)C1=Nc2ccc(NC(=O)C3=Nc4ccc(C(=O)Nc5ccc6[nH]c(C(=O)NCCN)cc6c5)cc4C3)cc2C1 | Serotype B | 4 µg/mL
Cc1cc(NC(=O)c2cccc(NC(=O)COc3cccc(Cl)c3Cl)c2)no1 | ATCC90112 | >100 µg/mL
CCCCCCCCNC1NCCC2c3ccccc3CCN12 | NFI3102 | 4 µg/mL
Cc1nnsc1C(=O)NNC(=S)Nc1ccc2ccccc2c1 | PLM 589 | 12.5 µg/mL
CC(=O)C[C@@H]1C[C@H]2[C@H]([C@@H]3c4[nH]c5ccccc5c4CCN13)[C@H](O)C13CC/C=C\CCCCN1CC21CC/C=C\CCCNC13 |  | 3.5 µg/mL
Cc1cc(NC(=O)c2cccc(NC(=O)COc3ccc(Cl)cc3Cl)c2)no1 | ATCC90112 | >100 µg/mL
Cn1ccc2c3oc(-c4ccccc4)cc(=O)c3ccc21 |  | 12.5 µg/mL
Cc1cc(C)c2c(n1)sc1c(Cl)nnnc12 |  | 100 µg/mL
CN[C@@H]1[C@H](O[C@@H]2O[C@H](CO)[C@@H](O)[C@H](S(=O)(=O)O)[C@H]2O)[C@@H](O)[C@H](O[C@H]2c3cc(C)c(C(=O)N[C@H](C)C(=O)O)c(O)c3-c3c(cc4c(c3O)C(=O)c3cc(OC)cc(O)c3C4=O)[C@@H]2O)O[C@@H]1C | D49 | 1.6 µg/mL
CC(C)(C)c1ccc(CN(Cc2cccs2)n2ccnc2)cc1 |  | 67 µM
Cc1ccc(CN(Cc2ccc(-c3ccccc3)cc2)n2ccnc2)cc1 |  | 200 µM
Cc1ccc(OCC(=O)Nc2ccc(C(=O)Nc3cc(C)on3)cc2)cc1 | ATCC90112 | >100 µg/mL
Nc1[nH]c(=O)ncc1F | 2a | 0.5 µg/mL
OC(c1cc(-c2ccc(C(F)(F)F)cc2)nc(-c2ccc(C(F)(F)F)cc2)c1)C1CCCCN1 | ATCC90112 | 0.4 µg/mL
O=C(ONC1=Nc2ccccc2SCC1)c1ccccc1 | IMAT4711 | >100 µg/mL
CCCCCCCC/C=C/CC/C=C/[C@H]1C[C@H]([C@](O)(CC(=O)O[C@@H](C(=O)O)[C@H](CC(=O)O)C(=O)O)C(=O)O)C(=O)O1 |  | 6.8 µM
O=C(NC1=Nc2ccc3ccccc3c2SC1)Oc1ccccc1 | IMAT4711 | 50 µg/mL
CC1CCS/C(=C(/C#N)n2cnc3ccccc32)S1 |  | >100 µg/mL
COc1ccc2c(c1)CCN1C(NCCCCCCC(C)C)NCCC21 | NFI3102 | 2 µg/mL
CCOC(=O)c1cc(C)nc2sc3c(Cl)nnnc3c12 |  | 100 µg/mL
CCOC(=O)C(=C1SCCCS1)n1ccnc1 |  | >100 µg/mL
S=C(NNC1=Nc2ccc3ccccc3c2SC1)Nc1ccccc1 | IMAT4711 | 50 µg/mL

A second listing of 2 rows from above:

COc1c(C(=O)/C=C(\O)c2ccccc2)ccc2sccc12 ; result: >50 µg/mL
COc1ccccc1CN(Cc1ccc(-c2ccccc2)cc1)n1ccnc1 ; result: 5.5 µM

Lines come from different laboratories, so protocols vary.